{"source": "ChEMBL document CHEMBL1201862", "about": "“PubChem BioAssay data set” (2004)", "note": "This is one part of the list. Only a part of the results of these assays is listed, not drawn at random. Activity calls are given as the source filed them. No cut-off for these calls is given here."}
{"system": "Plasmodium falciparum", "experiment": "Primary qHTS for delayed death inhibitors of the malarial parasite plastid, 48 hour incubation. [Related pubchem assays (depositor defined):AID488752, AID488774, AID504848, AID504850]", "type": "functional"}
{"compound": "CCOC(=O)C(CC)C1=NC(C)(C)Cc2ccccc21", "note": "(stereo not drawn)", "Potency": "inactive"}
{"compound": "Cc1nc2ccc3ccccc3c2s1", "Potency": "inactive"}
{"compound": "O=[N+]([O-])c1cc([N+](=O)[O-])c(NCC2CCS(=O)(=O)C2)c([N+](=O)[O-])c1", "note": "(stereo not drawn)", "Potency": "inactive"}
